# pIC50: −log10 of the molar value.
# Biological target: Na+-NQR (Na+-pumping NADH-ubiquinone oxidoreductase), inhibitor site at NqrB N-terminal region (Vibrio cholerae, UniProt A5F5X0, E157A)
# Settings: substrates NADH and ubiquinone-1; 50% inhibition not reached at highest concentration; mutant activity 50-60% lower than wild type
substance,measurement,value
aurachin D-42,pIC50,< 5.70

# Source: PMC9325719 (Nature Communications, 2022)
